Data: article PMC9376891, “Structural basis for Sarbecovirus ORF6 mediated blockage of nucleocytoplasmic transport” (Nature Communications, 2022)

The chains behind the UniProt entries cited, without tags or fusion partners. Residues count along the entry.
UniProt P52948, 157-213 partner limits assumed: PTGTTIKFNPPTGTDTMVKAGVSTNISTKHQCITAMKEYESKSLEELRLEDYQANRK
UniProt P78406, 31-368 limits assumed: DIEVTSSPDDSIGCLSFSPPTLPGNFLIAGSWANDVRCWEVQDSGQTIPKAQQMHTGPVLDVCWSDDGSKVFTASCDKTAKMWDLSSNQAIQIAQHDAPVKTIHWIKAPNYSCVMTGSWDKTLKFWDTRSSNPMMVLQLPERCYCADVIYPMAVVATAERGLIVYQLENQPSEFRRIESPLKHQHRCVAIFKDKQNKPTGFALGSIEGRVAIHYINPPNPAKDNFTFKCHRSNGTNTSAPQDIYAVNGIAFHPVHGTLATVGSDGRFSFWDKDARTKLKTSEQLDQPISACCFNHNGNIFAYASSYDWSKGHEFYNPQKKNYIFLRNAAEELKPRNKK

Target: Rae1_31-368-Nup98_157-213 heterodimer (Rae1-Nup98 complex) (Homo sapiens, UniProt P52948+P78406)
Experiment: Isothermal titration calorimetry (ITC) of peptides with Rae1-Nup98
Format: binding
Conditions: 25 °C, 20 mM Tris-HCl pH 8.0, 100 mM NaCl, peptide 0.5-1 mM titrated into 0.03 mM protein, single-site model

| SMILES | Kd [nM] |
| --- | --- |
| CC[C@H](C)[C@H](NC(=O)[C@H](CCC(=O)O)NC(=O)[C@H](CC(C)C)NC(=O)[C@@H]1CCCN1C(=O)[C@H](CCC(N)=O)NC(=O)[C@H](CCC(=O)O)NC(=O)[C@H](CCC(=O)O)NC(=O)[C@H](CC(=O)O)NC(=O)[C@H](CC(C)C)NC(=O)[C@H](CCC(N)=O)NC(=O)[C@H](CO)NC(=O)[C@@H](N)Cc1ccc(O)cc1)C(=O)N[C@@H](CC(=O)O)C(=O)O | 10400 |
| CC[C@H](C)[C@H](NC(=O)[C@H](CCC(=O)O)NC(=O)[C@H](CCSC)NC(=O)[C@@H]1CCCN1C(=O)[C@H](CCC(N)=O)NC(=O)[C@H](CCC(=O)O)NC(=O)[C@H](CCC(=O)O)NC(=O)[C@H](CC(=O)O)NC(=O)[C@H](CC(C)C)NC(=O)[C@H](CCC(N)=O)NC(=O)[C@H](CO)NC(=O)[C@@H](N)Cc1ccc(O)cc1)C(=O)N[C@@H](C)C(=O)O | 2770 |
| CC[C@H](C)[C@H](NC(=O)[C@H](CCC(=O)O)NC(=O)[C@H](CCSC)NC(=O)[C@H](C)NC(=O)[C@H](CCC(N)=O)NC(=O)[C@H](CCC(=O)O)NC(=O)[C@H](CCC(=O)O)NC(=O)[C@H](CC(=O)O)NC(=O)[C@H](CC(C)C)NC(=O)[C@H](CCC(N)=O)NC(=O)[C@H](CO)NC(=O)[C@@H](N)Cc1ccc(O)cc1)C(=O)N[C@@H](CC(=O)O)C(=O)O | 890 |
| CC[C@H](C)[C@H](NC(=O)[C@H](CCC(=O)O)NC(=O)[C@H](CCSC)NC(=O)[C@@H]1CCCN1C(=O)[C@H](C)NC(=O)[C@H](CCC(=O)O)NC(=O)[C@H](CCC(=O)O)NC(=O)[C@H](CC(=O)O)NC(=O)[C@H](CC(C)C)NC(=O)[C@H](CCC(N)=O)NC(=O)[C@H](CO)NC(=O)[C@@H](N)Cc1ccc(O)cc1)C(=O)N[C@@H](CC(=O)O)C(=O)O | 420 |
| CSCC[C@H](NC(=O)[C@@H]1CCCN1C(=O)[C@H](CCC(N)=O)NC(=O)[C@H](CCC(=O)O)NC(=O)[C@H](CCC(=O)O)NC(=O)[C@H](CC(=O)O)NC(=O)[C@H](CC(C)C)NC(=O)[C@H](CCC(N)=O)NC(=O)[C@H](CO)NC(=O)[C@@H](N)Cc1ccc(O)cc1)C(=O)N[C@@H](CCC(=O)O)C(=O)N[C@@H](C)C(=O)N[C@@H](CC(=O)O)C(=O)O | 4200 |
| CC[C@H](C)[C@H](NC(=O)[C@H](C)NC(=O)[C@H](CCSC)NC(=O)[C@@H]1CCCN1C(=O)[C@H](CCC(N)=O)NC(=O)[C@H](CCC(=O)O)NC(=O)[C@H](CCC(=O)O)NC(=O)[C@H](CC(=O)O)NC(=O)[C@H](CC(C)C)NC(=O)[C@H](CCC(N)=O)NC(=O)[C@H](CO)NC(=O)[C@@H](N)Cc1ccc(O)cc1)C(=O)N[C@@H](CC(=O)O)C(=O)O | 1650 |
